Substitutions are numbered along the chain they refer to.
B1: MX838 (trispecific antibody)
chain 1: QTVVTQEPSFSVSPGGTVTLTCGLSSGSVSTAYFPSWYQQTPGQAPRTLIYGTNTRSSGVPDRFSGSILGNKAALTITGAQADDESDYYCVLYMGRGIVVFGGGTKLTVLGGSSGEIVLTQSPGTLSLSPGERATLSCRASQSVSSSYLAWYQQKPGQAPRLLIYSASSRATGIPDRFSGSGSGTDFTLTISRLEPEDFAVYFCQQYGGLTGWTFGQGTKVEIKGGGGSGGSGSGGGGSASGSGQMQLVQSGPEVKKPGTSVKVSCKASGFTFTSSAVQWVRQRQRLEWIGWIVVGSGNTNYAQKFQERVTITRDMSTSTAYMELSSLRSEDTAVYYCAAPNCSNVVCYDGFDIWGQGTMVTVSSGGSSGQVQLVESGGGVVQPGRSLRLSCAASGFTLSSYGMHWVRQAPGKGLEWVAVISYDGSNKYYVDSVKGRFTISRDNSKNTLYLQMNSLRAEDTAVYYCRWAYWELLPDYYYGMDVWGQGTTVTVSSASGGSGDKTHTCPPCPAPELLGGPSVFLFPPKPKDTLMISRTPEVTCVVVDVSHEDPEVKFNWYVDGVEVHNAKTKPREEQYNSYVVSVLTVLHQDWLNGKEYKCKVSNKALPAPIEKTISKAKGQPREPQVYTLPPCRDELTKNQVSLWCLVKGFYPSDIAVEWESNGQPENNYKTTPPVLDSDGSFFKKLTVDKSRWQQGNVFSCSVLHEALHSHYTQKSLSLSPG
chain 2: DIQMTQSPSSVSASVGDRVIITCRASQGISSWLAWYQQKPGKAPKVLIYDASSLQSGVPSRFSGSGYGTDFTLTISSLQPEDSATYYCQQAKSFPITFGQGTRLEIKGGSSGEIVLTQSPGTLSLSPGERATLSCRASQSVSSSYLAWYQQKPGQAPRLLIYSASSRATGIPDRFSGSGSGTDFTLTISRLEPEDFAVYFCQQYGGLTGWTFGQGTKVEIKGGGGSGGSGSGGGGSASGSGQMQLVQSGPEVKKPGTSVKVSCKASGFTFTSSAVQWVRQRQRLEWIGWIVVGSGNTNYAQKFQERVTITRDMSTSTAYMELSSLRSEDTAVYYCAAPNCSNVVCYDGFDIWGQGTMVTVSSGGSSGQVQLVESGGGVVQPGRSLRLSCAASGFTFSSYAFHWVRQAPGKGLEWVAVISYDGSNQYYADSVKGRFTISRDNSKNTLYLQMNSLRADDTAVYYCARDLAIAVAGTWHYYNGMDVWGQGTTVTVSSASGGSGDKTHTCPPCPAPELLGGPSVFLFPPKPKDTLMISRTPEVTCVVVDVSHEDPEVKFNWYVDGVEVHNAKTKPREEQYNSYVVSVLTVLHQDWLNGKEYKCKVSNKALPAPIEKTISKAKGQPREPQVCTLPPSRDELTKNQVSLSCAVKGFYPSDIAVEWESNGQPENNYKTTPPVLDSDGSFFLVSKLTVDKSRWQQGNVFSCSVLHEALHSHYTQKSLSLSPG
B2: MX828 (bispecific antibody)
chain: B1 chain 1 with G208V, C632S, W644T
B3: MX829 (bispecific antibody)
chain: DIQMTQSPSSVSASVGDRVIITCRASQGISSWLAWYQQKPGKAPKVLIYDASSLQSGVPSRFSGSGYGTDFTLTISSLQPEDSATYYCQQAKSFPITFGQGTRLEIKGGSSGEIVLTQSPGTLSLSPGERATLSCRASQSVSSSYLAWYQQKPGQAPRLLIYSASSRATGIPDRFSGSGSGTDFTLTISRLEPEDFAVYFCQQYVGLTGWTFGQGTKVEIKGGGGSGGSGSGGGGSASGSGQMQLVQSGPEVKKPGTSVKVSCKASGFTFTSSAVQWVRQRQRLEWIGWIVVGSGNTNYAQKFQERVTITRDMSTSTAYMELSSLRSEDTAVYYCAAPNCSNVVCYDGFDIWGQGTMVTVSSGGSSGQVQLVESGGGVVQPGRSLRLSCAASGFTFSSYAFHWVRQAPGKGLEWVAVISYDGSNQYYADSVKGRFTISRDNSKNTLYLQMNSLRADDTAVYYCARDLAIAVAGTWHYYNGMDVWGQGTTVTVSSASGGSGDKTHTCPPCPAPELLGGPSVFLFPPKPKDTLMISRTPEVTCVVVDVSHEDPEVKFNWYVDGVEVHNAKTKPREEQYNSYVVSVLTVLHQDWLNGKEYKCKVSNKALPAPIEKTISKAKGQPREPQVYTLPPSRDELTKNQVSLTCLVKGFYPSDIAVEWESNGQPENNYKTTPPVLDSDGSFFKKLTVDKSRWQQGNVFSCSVLHEALHSHYTQKSLSLSPG
B4: MX828 + 829 (other)
chain 1: B1 chain 1 with G208V, C632S, W644T
chain 2: B3 chain
B5: MX830 (bispecific antibody)
chain: B1 chain 1 with C632S, W644T
B6: MX831 (bispecific antibody)
chain: B3 chain with V205G
B7: MX830 + 831 (other)
chain 1: B1 chain 1 with C632S, W644T
chain 2: B3 chain with V205G
B8: A23-58.1HC/58.1LC_93VGLTG (antibody, V domains shown)
VH: QMQLVQSGPEVKKPGTSVKVSCKASGFTFTSSAVQWVRQRQRLEWIGWIVVGSGNTNYAQKFQERVTITRDMSTSTAYMELSSLRSEDTAVYYCAAPNCSNVVCYDGFDIWGQGTMVTVSS
VL: EIVLTQSPGTLSLSPGERATLSCRASQSVSSSYLAWYQQKPGQAPRLLIYSASSRATGIPDRFSGSGSGTDFTLTISRLEPEDFAVYFCQQYVGLTGWTFGQGTKVEIK

Target: SARS-CoV-2 Omicron BA.1 spike protein (SARS-CoV-2, UniProt P0DTC2 14-1273)
Assay: cell-based or functional assay

Row | Binder | IC50, pseudovirus neutralization [nM] | IC80, pseudovirus neutralization [nM]
1 | B1 | 1 | 4
2 | B2 | 1 | 3
3 | B3 | 14 | 43
4 | B4 | 2 | 4
5 | B5 | 1 | 3
6 | B6 | 7 | 25
7 | B7 | 2 | 3
8 | B8 | 1 | 9

Target: SARS-CoV-2 Omicron BA.4/5 spike protein (F486V) (SARS-CoV-2, UniProt P0DTC2 14-1273)
Assay: cell-based or functional assay

Row | Binder | IC50, pseudovirus neutralization [nM] | IC80, pseudovirus neutralization [nM]
9 | B1 | 9 | 18
10 | B2 | 86 | 438
11 | B3 | 2 | 4
12 | B4 | 2 | 6
13 | B5 | 260 | 1560
14 | B6 | 2 | 4
15 | B7 | 2 | 4
16 | B8 | 4 | 21

From patent publication US20240109955A1 (published 2024)
